Consider 2 substances from PMC9642902.

Test in all cases: ITC
Experiment [1] concerns the target Mirabilis jalapa ATG8-III (Mirabilis jalapa).
The target in the next experiment is potato ATG8-2.2 (potato).
Experiment [2] deals with Mirabilis jalapa ATG8-I (Mirabilis jalapa).
For experiment [3] the target is unchanged. This is another data set of the same source.

Several values for one entry are separate records, joined by “and”; a condition that tells them apart may be missing. Equal values may be shown once. Read-outs that look alike come from different tables or passages of the source.

The term Kd denotes the constant that tells how readily two partners part at equilibrium. Read a low Kd as tighter binding. A word on the stoichiometry N: it is the number of molecules, sites or subunits per partner or assembly. As for PmPexRD54 AIM peptide, the Kd in experiment [1] was 20400 nM and 11700 nM and 78400 nM; in the experiment with potato ATG8-2.2 (potato), 4490 nM and 3040 nM and 4790 nM; in experiment [2], 15600 nM and 5440 nM. In addition, the stoichiometry N in experiment [1] is 1.23 and 1; with potato ATG8-2.2 (potato), 1.23 and 1.35 and 1.27; in experiment [2], 1.32 and 1.

PiPexRD54 AIM peptide: the dissociation constant (Kd) is 254 nM and 233 nM in experiment [3]; 176 nM and 66.3 nM and 245 nM in experiment [1]; 234 nM and 255 nM and 241 nM in experiment [2]. Moreover, the stoichiometry N in experiment [1] was 1.45 and 1.35 and 1.51; in experiment [2] it was 1.06 and 1.44 and 1.27.
